For the data set, the system named is patient who had loss of taste and smell from COVID-19. Particulars: 80 μg theophylline intranasal once per day, 3 months.

In the case of `Cn1c(=O)c2[nH]cnc2n(C)c1=O` [Theophylline, theophylline], the side effects entry is listed as “No side effects”.
